In publication PMC3089636:
The exact form of at least one protein or probe is not confirmed. Protein sequences can lack the tags named with them.

Target: T1, Fur (ferric uptake regulator) (UniProt A0A0H3NJ13)
T1 sequence (looked up, limits assumed): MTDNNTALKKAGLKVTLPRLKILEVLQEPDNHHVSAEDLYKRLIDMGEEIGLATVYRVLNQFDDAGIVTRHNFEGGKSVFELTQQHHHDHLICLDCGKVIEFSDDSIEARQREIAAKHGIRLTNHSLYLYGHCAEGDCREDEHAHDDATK
Experiment: EMSA
Settings: Mn2+, apparent Kd, protein for 50% complex; EMSA: 10 mM Bis-Tris/borate pH 7.5, 5% glycerol, 1 mM MgCl2, 40 mM KCl, 100 ug/ml BSA, 0.2 mg/ml salmon sperm DNA, 100 uM MnCl2, 20 nM probe, 10 min 37 C; recombinant protein; protein details: His tag of pET15b removed by thrombin; label: DIG; probe letters rebuilt from the primers and the genome

Sequence: GCAGCAGATTACCGCACAGGACACAGGGATTCCTGATGAAAATAGAATGAAAAGTGAGAAATAAAATCAATTTATTCTGTATAATGCGTCTCAACACATATTAAAAGAACCATCATCCCCATTGGGGCTTAAACTACTGTAGATAAATTACCCAAATTTGGGTTCTTTTGGTGTAACAATCAGACCATTGCCAACACACGCTAATAAAGAGCATTTACAACTCAGATTTTTTCAGTAGGATACCAGTAAGGAACATTAAAATAACATCAACAAAGGGATAATATGGAAAATGTAACCTTTGTAAGTAATAGTCATCAGCGTCCTGCCGCAGATAACT (double strand) [FrgA (PhilD)]
- Kd: 4.5 nM
